{"source": "patent US9663478B2", "about": "“Benzotriazine oxides as drugs targeting Mycobacterium tuberculosis” (priority 2011, dated 2017)", "system": "Vero cells", "experiment": "Cytotoxicity against Vero cells (Cell Titer-Glo)", "settings": "for SI (CC50/MIC): Tables 1-4 and text; for SI: ratio of the CC50/TB-MIC, Tables P1-P3"}
{"smiles": "CC1CCCCN1c1n[n+]([O-])c2cc3c(cc2[n+]1[O-])CCC3", "note": "(stereo not shown) [Compound 20w, 3-(2-methylpiperidin-1-yl)-7,8-dihydro-6H-indeno[5,6-e][1,2,4]triazine 1,4-dioxide]", "values": [{"measurement": "SI (CC50/MIC)", "value": ">40"}]}
{"smiles": "CCN(CC)c1n[n+]([O-])c2ccccc2[n+]1[O-]", "note": "[Compound 17o, 3-(diethylamino)benzo[e][1,2,4]triazine 1,4-dioxide]", "values": [{"measurement": "SI (CC50/MIC)", "value": 40}]}
{"smiles": "CN(CCc1ccccc1)c1n[n+]([O-])c2cc3c(cc2[n+]1[O-])CCC3", "note": "[Compound 20u, 3-(methyl(phenethyl)amino)-7,8-dihydro-6H-indeno[5,6-e][1,2,4]triazine 1,4-dioxide]", "values": [{"measurement": "SI (CC50/MIC)", "value": 130}]}
{"smiles": "[O-][n+]1nc(NC2CC3CCC2C3)[n+]([O-])c2cc3c(cc21)CCCC3", "note": "(stereo not shown) [SRI-012498]", "values": [{"measurement": "SI", "value": 40.0}]}
{"smiles": "CCNc1n[n+]([O-])c2cc(C)c(OC)cc2[n+]1[O-]", "note": "[SRI-012468]", "values": [{"measurement": "SI", "value": 40}]}
{"smiles": "[O-][n+]1nc(N2CCCC2)[n+]([O-])c2ccccc21", "note": "[SRI-012495]", "values": [{"measurement": "SI", "value": 55.8}]}
{"smiles": "[O-][n+]1nc(NC2CCC2)[n+]([O-])c2cc3c(cc21)CCCC3", "note": "[SRI-012497]", "values": [{"measurement": "SI", "value": 40.0}]}
{"smiles": "[O-][n+]1nc(NC2CCC2)[n+]([O-])c2cc3c(cc21)CCC3", "note": "[SRI-012403]", "values": [{"measurement": "SI", "value": 53.8}]}
{"smiles": "CCNc1n[n+]([O-])c2cc(C)c(OC)cc2[n+]1[O-]", "note": "[Compound 15ga, 3-(ethylamino)-6-methoxy-7-methylbenzo[e][1,2,4]triazine 1,4-dioxide]", "values": [{"measurement": "SI (CC50/MIC)", "value": ">40"}]}
{"smiles": "[O-][n+]1nc(NC2CCC2)[n+]([O-])c2cc3c(cc21)CCC3", "note": "[Compound 15fd, Cyclobutyl-(5,8-dioxy-2,3-dihydro-1H-5,6,8-triaza-cyclopenta[b]naphthalen-7-yl)-amine]", "values": [{"measurement": "SI (CC50/MIC)", "value": 54}]}
{"smiles": "O=S1(=O)CCN(c2n[n+]([O-])c3cc4c(cc3[n+]2[O-])CCC4)CC1", "note": "[Compound 20v, 3-(thiomorpholinosulfone-1-yl)-7,8-dihydro-6H-indeno[5,6-e][1,2,4]triazine 1,4-dioxide]", "values": [{"measurement": "SI (CC50/MIC)", "value": 3.4}]}
{"smiles": "CCN(CC)c1n[n+]([O-])c2ccccc2[n+]1[O-]", "note": "[SRI-009728]", "values": [{"measurement": "SI", "value": 39.6}]}
{"smiles": "CCNc1n[n+]([O-])c2cc3c(cc2[n+]1[O-])CCCC3", "note": "[SRI-012496]", "values": [{"measurement": "SI", "value": 17.4}]}
{"smiles": "[O-][n+]1nc(N2CCCC2)[n+]([O-])c2ccccc21", "note": "[Compound 17q, 3-(pyrrolidin-1-yl)benzo[e][1,2,4]triazine 1,4-dioxide]", "values": [{"measurement": "SI (CC50/MIC)", "value": 56}]}
{"smiles": "CC(C)(C)Nc1n[n+]([O-])c2ccccc2[n+]1[O-]", "note": "[Compound 8c, 3-(tert-butylamino)benzo[e][1,2,4]triazine 1,4-dioxide]", "values": [{"measurement": "SI (CC50/MIC)", "value": 6.4}]}
{"smiles": "CN(Cc1ccccc1)c1n[n+]([O-])c2cc3c(cc2[n+]1[O-])CCC3", "note": "[Compound 20t, 3-(benzyl(methyl)amino)-7,8-dihydro-6H-indeno[5,6-e][1,2,4]triazine 1,4-dioxide]", "values": [{"measurement": "SI (CC50/MIC)", "value": 53}]}
